This is an account of results in the NIST ThermoML archive (doi:10.1016/j.fluid.2010.04.016).

Several values for one entry are separate records, joined by “and”; a condition that tells them apart may be missing. Equal values may be shown once. Numbers after ± are expanded uncertainties.

For the series the following is noted: Crystal; visual observation.

As for `CCCCOP(=O)(OCCCC)OCCCC` [tributyl phosphate], the Normal melting temperature was -78.9 ± 0.16 °C and -78.84 ± 0.2 °C.
